Anti-infective test results gathered from many reports (values: NIAID ChemDB through PubChem).

Shared fields: target-level tests; species: HIV-1; protein: Reverse transcriptase

Fold resistance: result on the changed form divided by that on wild type. ICn: concentration for n% inhibition. Neighbouring rows are from separate reports. a–b is a range or a potency band. Blank or dashed fields: not listed here.

smiles	strain or isolate	changes	method	endpoint	result
O=c1cc(Cc2ccccc2)nc(NCCCCO)[nH]1		RT-Y188L		Ki	>1000 µM
CCN1c2ncc(CCOc3ccc(-c4cccc(CC(=O)O)c4)cc3C)cc2C(=O)N(C)c2cccnc21	IIIB	RT-K103N Y181C	nucleotide incorporation / radiometric	fold resistance	1
COc1ccc(Cl)c(-n2nnnc2SCC(=O)Nc2ccc(C#CC(C)(C)C(=O)O)cc2Cl)c1	WT		PicoGreen / fluorescence	IC50	<1 µM
CCN1c2ncc(CCOc3ccc(-c4ccc(C(=O)O)cc4)c(C)c3)cc2C(=O)N(C)c2cccnc21	IIIB		nucleotide incorporation / radiometric	IC50	<0.05 µM
Cc1c(N2CCc3ccccc3C2)nn2c(C)nnc2c1C	KER2008		RT activity / fluorescence	IC90	76.7 µM
CCN1c2ncc(CCOc3ccc(/C=C(\C)C(=O)O)c4ccccc34)cc2C(=O)Nc2c(C)ccnc21		RT-K103N Y181C	nucleotide incorporation / radiometric	fold resistance	1–10
CC(C)(C)c1ccc(-n2nnnc2SCC(=O)Nc2ccc(OCC(=O)Nc3ccc(CC(=O)O)cc3)cc2Cl)c(Cl)c1		RT-K103 Y181C	PicoGreen / fluorescence	IC50	<1 µM
Cc1nnc2c3ccccc3c(N3CCc4ncccc4C3)nn12	98US_MSC5016		RT activity / fluorescence	IC90	3.06 µM
CC(CC(=O)O)NC(=O)COC(C)(C)C#Cc1ccc(NC(=O)CSc2nnnn2-c2ccc(C(C)(C)C)cc2Cl)c(Cl)c1	WT		PicoGreen / fluorescence	IC50	<1 µM
Cc1c(Cc2ccccc2)nc(SCCCCO)[nH]c1=O		RT-K103N		Ki	83 µM
CC(C)(C#Cc1ccc(NC(=O)CSc2nnnn2-c2ccc(C3CC3)cc2Cl)c(Cl)c1)C(=O)NCc1cc[n+]([O-])cc1		RT-K103 Y181C	PicoGreen / fluorescence	IC50	<1 µM
CCN1c2ncc(CCOc3ccc(-c4ccc(C(=O)O)o4)cc3)cc2C(=O)N(C)c2cccnc21	IIIB	RT-K103N Y181C	nucleotide incorporation / radiometric	fold resistance	>1
CN(C)C(=O)COC(C)(C)C#Cc1ccc(NC(=O)CSc2nnnn2-c2ccc(C(C)(C)C)cc2Cl)c(Cl)c1	WT		PicoGreen / fluorescence	IC50	<1 µM
FC(F)c1nnc2c3ccccc3c(N3CCc4ccccc4C3)nn12	KER2008		RT activity / fluorescence	IC90	0.88 µM
CCN1c2ncc(CCOc3ccc(/C=C/C(=O)O)c4ccccc34)cc2C(=O)Nc2c(C)ccnc21		RT-Y188L	nucleotide incorporation / radiometric	IC50	>1 µM
CC(C)(C)c1ccc(-n2nnnc2SCC(=O)Nc2ccc(NC(=O)C3CCCC3)cc2Cl)c(Cl)c1		RT-K103 Y181C	PicoGreen / fluorescence	IC50	<1 µM
Cc1nnc2c3ccccc3c(N3Cc4ccccc4C(C)(C)C3)nn12	IIIB		RT activity / fluorescence	IC90	68.5 µM
CCN1c2ncc(CCOc3ccc(-c4ncc[nH]4)cc3C)cc2C(=O)N(C)c2cccnc21	IIIB	RT-K103N Y181C	nucleotide incorporation / radiometric	fold resistance	1
CCN1c2ncc(CCOc3ccc(CC(=O)NN)c4ccccc34)cc2C(=O)N(C)c2cccnc21		RT-V106A	nucleotide incorporation / radiometric	IC50	0.1–1 µM
Cc1ccc(-n2nccc2SCC(=O)Nc2ccc(-c3ccc(CC(=O)O)cc3)cc2Cl)c(Cl)c1		RT-K103 Y181C	PicoGreen / fluorescence	IC50	<1 µM
CCN1c2ncc(CCOc3ccc4cc(C(=O)NC(C)(C)C(=O)O)ccc4c3)cc2C(=O)N(C)c2cccnc21		RT-Y188L	nucleotide incorporation / radiometric	IC50	>1 µM
CC(C)(C)c1ccc(-n2nnnc2SCC(=O)Nc2ccc(NC(=O)c3ccccc3O)cc2Cl)c(Cl)c1		RT-K103 Y181C	PicoGreen / fluorescence	IC50	<1 µM
CCN1c2ncc(CCOc3ccc4cc(C(=O)NN)ccc4c3)cc2C(=O)N(C)c2cccnc21		RT-K103N Y181C	nucleotide incorporation / radiometric	fold resistance	1–10
CCN1c2ncc(CCOc3ccc(-c4nc(C(=O)O)cs4)cc3)cc2C(=O)N(C)c2cccnc21	IIIB	RT-K103N Y181C	nucleotide incorporation / radiometric	fold resistance	>2
c1ccc2c(c1)CCN(c1nn3c(C4CC4)nnc3c3ccccc13)C2	KER2008		RT activity / fluorescence	IC90	5.64 µM
COC(=O)NCCCCNc1nc(Cc2ccccc2)c(C)c(=O)[nH]1		RT-V106A		Ki	>1000 µM
CC(C)(C)c1ccc(-n2nnnc2SCC(=O)Nc2ccc(S(=O)(=O)NCC(=O)O)cc2Cl)c(Cl)c1		RT-K103 Y181C	PicoGreen / fluorescence	IC50	<1 µM
CCN1c2ncc(CCOc3ccc(-c4ccc(C(=O)O)s4)cc3)cc2C(=O)N(C)c2cccnc21	IIIB	RT-K103N Y181C	nucleotide incorporation / radiometric	fold resistance	>1
CC(C)(O)C#Cc1ccc(NC(=O)CSc2nnnn2-c2cc(F)cc(C(F)(F)F)c2Cl)c(Cl)c1		RT-K103 Y181C	PicoGreen / fluorescence	IC50	<1 µM
CCN1c2ncc(CCOc3ccc(-c4ccncc4)cc3C)cc2C(=O)N(C)c2cccnc21	IIIB	RT-K103N Y181C	nucleotide incorporation / radiometric	IC50	<0.05 µM
Nc1cc2c(cc1F)CN(c1nn3c(C4CC4)nnc3c3ccccc13)CC2	KER2008		RT activity / fluorescence	IC90	2.25 µM
CCNC(=O)c1ccc(NC(=O)CSc2nnnn2-c2ccc(C)cc2Cl)c(Cl)c1	WT		PicoGreen / fluorescence	IC50	<1 µM
CCN1c2ncc(CCOc3ccc(-c4ccc(C(=O)O)cc4)c(Cl)c3)cc2C(=O)N(C)c2cccnc21	IIIB		nucleotide incorporation / radiometric	IC50	<0.05 µM

A second listing of 5 rows from above:

| smiles | strain or isolate | changes | method | endpoint | result |
|---|---|---|---|---|---|
| Cc1ccc(-n2nccc2SCC(=O)Nc2ccc(-c3ccc(CC(=O)O)cc3)cc2Cl)c(Cl)c1 |  | RT-K103 Y181C | PicoGreen / fluorescence | IC50 | <1 µM |
| FC(F)c1nnc2c3ccccc3c(N3CCc4ccccc4C3)nn12 | KER2008 |  | RT activity / fluorescence | IC90 | 0.88 µM |
| CCN1c2ncc(CCOc3ccc(-c4ccc(C(=O)O)s4)cc3)cc2C(=O)N(C)c2cccnc21 | IIIB | RT-K103N Y181C | nucleotide incorporation / radiometric | fold resistance | >1 |
| CCN1c2ncc(CCOc3ccc(/C=C(\C)C(=O)O)c4ccccc34)cc2C(=O)Nc2c(C)ccnc21 |  | RT-K103N Y181C | nucleotide incorporation / radiometric | fold resistance | 1–10 |
| CCN1c2ncc(CCOc3ccc(-c4ncc[nH]4)cc3C)cc2C(=O)N(C)c2cccnc21 | IIIB | RT-K103N Y181C | nucleotide incorporation / radiometric | fold resistance | 1 |